A mixed list of measured activities; the numbers were collected in NIAID ChemDB.

Shared fields: cytotoxicity tests; cell line: MT-4; endpoint: CC50

Neighbouring rows are from separate reports. CCn: concentration that lowers growth or viability of the cells by n%. Blank or dashed fields: not listed here.

SMILES,read by,result
CC(=O)Nc1ccc(Cl)cc1S(=O)(=O)/N=c1\sc(C(C)(C)C)c(C)n1C,MTT,>25 µM
Cc1cn([C@H]2C[C@H](N=[N+]=[N-])[C@@H](CO)O2)c(=O)[nH]c1=O,MTT,46 µM
Cc1ccnc2c1NC(=O)c1cccnc1N2C1CC1,MTT,>200 µM
Cc1cn([C@H]2C[C@H](N=[N+]=[N-])[C@@H](CO)O2)c(=O)[nH]c1=O,,>2 µg/mL
CO[C@H]1CC[C@H](C)N2C[C@H]1n1cc(C(=O)NCc3ccc(F)c(Cl)c3F)c(=O)c(O)c1C2=O,luminescence,4.272 µM
Nc1nc(Br)nc2c1ncn2[C@@H]1O[C@H](CO)[C@H]1O,,30 µg/mL
Cc1cn([C@H]2C[C@H](N=[N+]=[N-])[C@@H](CO)O2)c(=O)[nH]c1=O,,1.1 µg/mL
COC(=O)C[C@@H](NP(=O)(OC[C@H]1C=C[C@@H](n2cnc3c(N)ncnc32)C1)Oc1ccccc1)C(=O)OC,trypan blue,≥250 µM
CC(=O)Oc1ccc2cc(Br)ccc2c1Cc1c[nH]c2ccccc12,,19 µM
CC1(C)S[C@H]([C@H](NC(=O)Cc2ccccn2)C(=O)NCc2ccc(Cl)cc2Cl)N[C@H]1C(=O)NCCNC(=O)[C@@H]1N[C@@H]([C@H](NC(=O)Cc2ccccn2)C(=O)NCc2ccc(Cl)cc2Cl)SC1(C)C,,>100 µM
CC(C)=CCOCn1c(Cc2cc(C)cc(C)c2)c(C(C)C)c(=O)[nH]c1=O,,>100 µM
Nc1ccn([C@H]2CC[C@@H](CO)O2)c(=O)n1,MTT,>94 µM
Nc1ncnc2c1ncn2[C@H]1CC[C@@H](CO)O1,,1200 µM
CCc1cc(CCC2(C3CCCC3)CC(O)=C(Cc3nc4nc(C)cc(C)n4n3)C(=O)O2)cc(CC)n1,luminescence,59 µM
CC(C)=CCN1C(=O)c2cccn2S(=O)(=O)c2cc(Cl)ccc21,,>300 µM
C=C[C@@]1(CO)CO[C@@H](n2ccc(=O)[nH]c2=O)C1,,>100 µg/mL
COC(=O)[C@@H](Cc1ccccc1)NP(=O)(OC[C@H]1C=C[C@@H](n2cnc3c(N)ncnc32)C1)Oc1ccccc1,trypan blue,71 µM
COc1ccccc1S(=O)(=O)/N=c1\sc(C(C)(C)C)c(C)n1C,MTT,>25 µM
Cc1c(C(C)C2CCCCC2)nc(SCC(=O)c2ccccc2)[nH]c1=O,MTT,259 µM
COc1ccc2c(CN3CCN(Cc4c(O)ccc5cc(OC)ccc45)CC3)c(O)ccc2c1,,>100 µM
Cc1cn([C@H]2C[C@H](N=[N+]=[N-])[C@@H](CO)O2)c(=O)[nH]c1=O,,1.5 µg/mL
Cc1ccnc2c1NC(=O)c1cccnc1N2C1CC1,,>100 µM
CN1C(=O)c2cccn2S(=O)(=O)c2ccc(Cl)cc21,,110 µM
CC(C)=CCC/C(C)=C/CC/C(C)=C/Cc1c(O)cc(C)c(C(=O)O)c1O,,40 µM
CCN1C(c2ccccc2)c2cccn2-c2ccc(Cl)cc2S1(=O)=O,,7.4 µM
O=S1(=O)c2cc(Cl)ccc2NC(=S)c2c[nH]cc21,MTT,>200 µM
Nc1nc(-c2ccc(Br)cc2Br)c(SCC(=O)Nc2ccccc2Cl)s1,MTT,23.67 µM
CC(C)=CCN1C(=O)c2cccn2-c2ccc(Cl)cc2S1(=O)=O,,10 µM
COc1c(C)c2c(c(O)c1C/C=C(\C)CCC(=O)O)C(=O)OC2,,0.2 µM
Cc1ccnc2c1NC(=O)c1cccnc1N2C1CC1,MTT,>15 µM
COC(=O)[C@@H]1CCCN1P(=O)(OC[C@H]1C=C[C@@H](n2cnc3c(N)ncnc32)C1)Oc1ccccc1,trypan blue,106 µM
COc1ccc2[nH]cc(Cc3c(OC(C)=O)ccc4ccccc34)c2c1,,19 µM
COC(=O)[C@@H](NP(=O)(OC[C@H]1C=C[C@@H](n2cnc3c(N)ncnc32)C1)Oc1ccccc1)C(C)C,trypan blue,152 µM
Cc1cn([C@H]2C[C@H](N=[N+]=[N-])[C@@H](CO)O2)c(=O)[nH]c1=O,,>15 µM
Nc1nc2c(ncn2[C@H]2CC[C@@H](CO)O2)c(=O)[nH]1,,611 µM
Cc1c(C(C)(C)C)s/c(=N\S(=O)(=O)c2ccccc2[N+](=O)[O-])n1C,MTT,>25 µM
CCOCn1c(Cc2ccccc2)c(C(C)C)c(=O)[nH]c1=O,MTT,>100 µM
O=C(CSc1nc(CCC2CCCCC2)cc(=O)[nH]1)c1ccc(F)cc1,MTT,80 µM
C1CNCCNCCCN(CCCN2CCCNCCNCCCNCC2)CCNC1,,>125 µg/mL
Nc1nc(F)nc2c1ncn2[C@@H]1O[C@H](CO)[C@H]1O,,5.6 µg/mL
O=C1Nc2ccc(Cl)cc2S(=O)(=O)c2cn(Cc3c(F)cccc3F)cc21,MTT,>200 µM
COc1ccc2ccc(O)c(CN3CCN(Cc4c(O)ccc5ccc(OC)cc45)CC3)c2c1,,>100 µM
O=c1[nH]cnc2c1ncn2[C@H]1CC[C@@H](CO)O1,MTT,>20 µg/mL
O=C(CSc1sc(Cl)nc1-c1ccc(Br)cc1Br)Nc1ccccc1F,MTT,33.18 µM
CN(C)CCN1CC(=O)N2c3ccccc3N(C)n3cccc3C2C1=O,,>300 µM
COc1ccc(COCCSc2nc(C(C)c3c(F)cccc3F)c(C)c(=O)[nH]2)cc1,,30.72 µM
C=C(C)[C@]12C[C@@H](COC(=O)c3ccccc3)[C@@]34O[C@]5(O[C@@H]1[C@@H]3[C@@H]1O[C@]1(CO)[C@@H](O)[C@@]1(O)[C@H]4[C@H]([C@H](C)[C@@H]1OC(=O)c1ccccc1)[C@H](C)CCCCCC[C@H]5O)O2,luminescence,>2.5 µM
CCc1c(Cc2c(Cl)cccc2Cl)nc(SC/C=C/c2ccc([N+](=O)[O-])cc2)[nH]c1=O,,32.14 µM
O=S1(=O)NC(c2ccccc2)c2cccn2-c2ccc(Cl)cc21,,≥200 µM
NC(=O)c1ncn([C@@H]2O[C@H](CO)[C@@H](O)[C@H]2O)n1,,31 µM
COC(=O)[C@H](Cc1ccc(O)cc1)NP(=O)(OC[C@H]1C=C[C@@H](n2cnc3c(N)ncnc32)C1)Oc1ccccc1,MTS,>32 µM
Cc1c(C(C)(C)C)s/c(=N\S(=O)(=O)c2cccc(Cl)c2)n1C,MTT,>25 µM
COC(=O)[C@H](CC(C)C)NP(=O)(OC[C@H]1C=C[C@@H](n2cnc3c(N)ncnc32)C1)Oc1ccccc1,trypan blue,23.2 µM
CCOC(=O)[C@H](C)NP(=O)(OC[C@@H]1O[C@H](n2cc(C)c(=O)[nH]c2=O)C[C@H]1N=[N+]=[N-])OC[C@H]1O[C@@H](n2cc(C)c(=O)[nH]c2=O)C[C@@H]1N=[N+]=[N-],,>100 µM
CN1c2ccccc2N2C(=O)CN(CCN3CCCCC3)C(=O)C2c2cccn21,,>300 µM
CCCCNC(=S)N/N=C(\C)c1nc2ccc(Cl)cc2[nH]1,MTT,1.69 µg/mL
COC(=O)[C@H](Cc1ccc(OC(C)(C)C)cc1)NP(=O)(OC[C@H]1C=C[C@@H](n2cnc3c(N)ncnc32)C1)Oc1ccccc1,MTS,<40 µM
COc1cc(C)c(C(=O)O)c(O)c1C/C=C(\C)CC/C=C(\C)CCC=C(C)C,,53 µM
O=C1c2cccn2-c2ccc(Cl)cc2S(=O)(=O)N1C1CCCC1,,66.6 µM
Cc1c(C(C)C)s/c(=N\S(=O)(=O)c2cc(F)ccc2C#N)n1C,MTT,>25 µM
CCOC(=O)c1cn(CC=C(C)C)cc1S(=O)(=O)c1cc(Cl)ccc1NCC=C(C)C,MTT,>200 µM
Cc1c(C(C)(C)C)s/c(=N\S(=O)(=O)c2ccccc2)n1C,MTT,>25 µM
COc1ccc2c(Cc3c[nH]c4ccc(OC)cc34)c(OC(C)=O)ccc2c1,,34 µM
CS(=O)(=O)OCC1Nc2ccccc2S(=O)(=O)n2cccc21,,130 µM
Cc1cc([N+](=O)[O-])ccc1NC(=O)CSc1sc(N)nc1-c1ccc(Br)cc1Br,MTT,30.81 µM
C[C@H](NP(=O)(OC[C@H]1C=C[C@@H](n2cnc3c(N)ncnc32)C1)Oc1ccccc1)C(=O)OCC(C)(C)C,trypan blue,20.2 µM
Cc1cn([C@H]2C[C@H](N=[N+]=[N-])[C@@H](CO)O2)c(=O)[nH]c1=O,MTT,>20 µM
CC(c1cc(=O)[nH]c(SCC(=O)c2ccccc2)n1)C1CCCCC1,MTT,267 µM
Nc1nc(Cl)nc2c1ncn2[C@@H]1O[C@H](CO)[C@H]1O,,56 µg/mL
CCc1c(Cc2c(F)cccc2F)nc(SCc2ccc(C#N)cc2)[nH]c1=O,,>62.97 µM
Nc1nc(-c2ccc(Br)cc2Br)c(SCC(=O)Nc2ccccc2F)s1,MTT,24.94 µM
c1cc(CN2CCCNCCNCCCNCC2)ccc1CN1CCCNCCNCCCNCC1,,>200 µM
Oc1ccc2ccccc2c1CN1CCN(Cc2c(O)ccc3ccccc23)CC1,,>100 µM
CC12OC[C@H]3O[C@H](C[C@@H]3N=[N+]=[N-])N1C(=O)NC(=O)[C@@]2(C)Br,,90 µM
Cc1cn([C@H]2C[C@H](N=[N+]=[N-])[C@@H](CO)O2)c(=O)[nH]c1=O,,6.8 µM
CC(C)N1C(=O)c2cccn2S(=O)(=O)c2cc(Cl)ccc21,,>300 µM
CC1(C)S[C@H]([C@H](NC(=O)Cc2ccccc2)C(=O)NCCO)N[C@H]1C(=O)NCCNC(=O)[C@@H]1N[C@@H]([C@H](NC(=O)Cc2ccccc2)C(=O)NCCO)SC1(C)C,,>100 µM
O=C1Nc2ccccc2Cn2ccnc21,,>300 µM
Cc1ccccc1NC(=O)CSc1sc(N)nc1-c1ccc(Br)cc1Br,MTT,23.96 µM
COc1ccc(/C=C/CSc2nc(C(C)c3c(F)cccc3F)c(C)c(=O)[nH]2)cc1,,>11.7 µM
CC(C)(C)OC(=O)CNC(=O)[C@@H](NC(=O)Cc1ccccc1)[C@@H]1N[C@@H](C(=O)NCCNC(=O)[C@@H]2N[C@@H]([C@H](NC(=O)Cc3ccccc3)C(=O)NCC(=O)OC(C)(C)C)SC2(C)C)C(C)(C)S1,,>100 µM
Cc1c(C(C)C)s/c(=N\S(=O)(=O)c2cc(Cl)ccc2C#N)n1C,MTT,>25 µM
Cc1cn([C@@H]2C[C@@H](N=[N+]=[N-])[C@H](COP(N)(=O)OC[C@H]3O[C@@H](n4cc(C)c(=O)[nH]c4=O)C[C@@H]3N=[N+]=[N-])O2)c(=O)[nH]c1=O,,>100 µM
Cn1cc(NC(=O)c2cc(NC(=O)c3cc([N+](=O)[O-])cn3C)cn2C)cc1C(=O)NCCC#N,MTT,124 µM
CCc1c(Cc2c(Cl)cccc2Cl)nc(SC/C=C/c2ccc(OC)cc2)[nH]c1=O,,0.19 µM
O=S1(=O)NC(c2c(Cl)cccc2Cl)c2cccn2-c2ccc(Cl)cc21,,>200 µM
CC(c1cc(=O)[nH]c(SCC(=O)c2ccc(F)cc2)n1)C1CCCCC1,MTT,165 µM
COc1ccc(CCSc2nc(C(C)c3c(Cl)cccc3Cl)c(C)c(=O)[nH]2)cc1,,>11.13 µM
C=C(C)COCn1c(Cc2cc(C)cc(C)c2)c(CC)c(=O)[nH]c1=O,,>100 µM
CC(=N)CCNC(=O)c1cc(NC(=O)c2cc(NC(=O)c3cc(NP(=O)(OC[C@@H]4C=C[C@H](n5cc(C)c(=O)[nH]c5=O)O4)OC4CCCCC4)cn3C)cn2C)cn1C,MTT,76 µM
CC1(C)S[C@H]([C@H](NC(=O)Cc2ccccc2)C(=O)NCC2CCCCC2)N[C@H]1C(=O)NCCNC(=O)[C@@H]1N[C@@H]([C@H](NC(=O)Cc2ccccc2)C(=O)NCC2CCCCC2)SC1(C)C,,>100 µM

10 of the rows above, restated:

SMILES	read by	result
COc1ccc2ccc(O)c(CN3CCN(Cc4c(O)ccc5ccc(OC)cc45)CC3)c2c1		>100 µM
CCOC(=O)[C@H](C)NP(=O)(OC[C@@H]1O[C@H](n2cc(C)c(=O)[nH]c2=O)C[C@H]1N=[N+]=[N-])OC[C@H]1O[C@@H](n2cc(C)c(=O)[nH]c2=O)C[C@@H]1N=[N+]=[N-]		>100 µM
O=S1(=O)NC(c2ccccc2)c2cccn2-c2ccc(Cl)cc21		≥200 µM
O=C1Nc2ccc(Cl)cc2S(=O)(=O)c2cn(Cc3c(F)cccc3F)cc21	MTT	>200 µM
CC1(C)S[C@H]([C@H](NC(=O)Cc2ccccc2)C(=O)NCC2CCCCC2)N[C@H]1C(=O)NCCNC(=O)[C@@H]1N[C@@H]([C@H](NC(=O)Cc2ccccc2)C(=O)NCC2CCCCC2)SC1(C)C		>100 µM
CCc1c(Cc2c(Cl)cccc2Cl)nc(SC/C=C/c2ccc(OC)cc2)[nH]c1=O		0.19 µM
COC(=O)[C@H](CC(C)C)NP(=O)(OC[C@H]1C=C[C@@H](n2cnc3c(N)ncnc32)C1)Oc1ccccc1	trypan blue	23.2 µM
O=c1[nH]cnc2c1ncn2[C@H]1CC[C@@H](CO)O1	MTT	>20 µg/mL
Cc1cn([C@H]2C[C@H](N=[N+]=[N-])[C@@H](CO)O2)c(=O)[nH]c1=O		1.1 µg/mL
CC(c1cc(=O)[nH]c(SCC(=O)c2ccc(F)cc2)n1)C1CCCCC1	MTT	165 µM